Pooled drug test results. Numbers come from NIAID ChemDB, via PubChem.

Common to all: whole-cell or culture tests; species: HIV-1; read by: cytopathic effect / XTT; endpoint: EC50

Lines come from different laboratories, so protocols vary. ECn: concentration that inhibits the pathogen or its effect by n%. Blank or dashed fields: not listed here.

compound | cells | strain or isolate | mutations | result
Nc1nc(NC2CC2)c2ncn([C@H]3C=C[C@@H](CO)C3)c2n1 | MT-2 | Site-directed mutant | RT-K65R M184V | >3.44 µM
CO[C@@H]1N([C@H]2C=C[C@@H](CO)O2)C(=O)NC(=O)[C@@]1(C)Br | CEM | RF | - | 54.6 µM
C/C=C/CSc1cc(NC(=S)c2ccsc2C)ccc1Cl | CEM + CEM-SS | NL4-3 (RT M184V) | RT-M184V | 0.1 µM
C[C@H](Cn1cnc2c(N)ncnc21)OCP(=O)(O)O | MT-2 | Site-directed mutant | RT-K65R | 11.88 µM
Cc1ccnc2c1NC(=O)c1cccnc1N2C1CC1 | CEM + CEM-SS | RF | - | 0.2 µM
COC1(C)C(=O)NC(=O)N([C@H]2C=C[C@@H](CO)O2)[C@H]1O | CEM | RF | - | 7.82 µM
CC(=O)O[C@H](C)[C@@H]1C2=C(C(=O)C[C@]1(C)O)C(=O)c1c(ccc(-c3ccc4c(c3O)C(=O)C3=C(C4=O)[C@@H]([C@@H](C)OC(C)=O)[C@@](C)(O)CC3=O)c1O)C2=O | CEM | RF | - | >0.3 µM
Cc1ccnc2c1NC(=O)c1cccnc1N2C1CC1 | CEM + CEM-SS | NL4-3 | RT-V179D | 0.03 µM
O/N=C1\C(=C\c2ccc3c(c2)OCO3)CCCC1C(NO)c1ccc2c(c1)OCO2 | CEM | RF | - | >127 µM
Cc1cn([C@H]2C[C@H](N=[N+]=[N-])[C@@H](CO)O2)c(=O)[nH]c1=O | CEM + CEM-SS | NL4-3 | RT-V106I | 0.003 µM
Cc1occc1C(=S)Nc1ccc(Cl)c(/C=N/OC(C)(C)C)c1 | CEM + CEM-SS | TIBO R82150-resistant (RT A98G V108I) | RT-A98G V108I | 1.1 µM
CCc1c(Sc2ccccn2)n(COCc2ccccc2)c(=O)[nH]c1=O | PBMC | WEJO | - | 0.05 µM
CCc1c(C(=O)c2cc(C)cc(C)c2)n(CC2CC=CC2)c(=O)[nH]c1=O | CEM + CEM-SS | NL4-3 | RT-K101E | >0.14 µM
Cc1cn([C@H]2C[C@H](N=[N+]=[N-])[C@@H](CO)O2)c(=O)[nH]c1=O | MT-2 | Site-directed mutant | RT-L74V K103N | 0.6 µM
C[C@]1(Br)C(=O)NC(=O)N([C@H]2C=C[C@@H](CO)O2)[C@@H]1N=[N+]=[N-] | CEM | RF | - | 0.918 µM
CN(C)C1C(=O)C(C(=O)NCNCCC(=O)O)=C(O)C2(O)C(=O)C3=C(O)c4c(O)cccc4C(C)(O)C3CC12 | CEM | RF | - | >111 µM
CO[C@H]1N([C@H]2C=C[C@@H](CO)O2)C(=O)NC(=O)[C@]1(C)Cl | CEM | RF | - | 375 µM
CC(C)c1ccc(C(c2ccc(OCC(=O)O)cc2)c2ccc(C(C)C)cc(=O)c2O)c(O)c(=O)c1 | CEM | RF | - | >11.7 µM
O=S1(c2ccccc2)=NC(=S)Nc2ccccc21 | CEM + CEM-SS | IIIB | - | 1.39 µM
Cc1cn([C@H]2C[C@H](N=[N+]=[N-])[C@@H](CO)O2)c(=O)[nH]c1=O | CEM + CEM-SS | A17 | - | 0.14 µM
Nc1nc(NC2CC2)c2ncn([C@H]3C=C[C@@H](CO)C3)c2n1 | MT-2 | LAI | - | 2.5 µM
CN/N=C(/c1nc2ccc([N+](=O)[O-])cc2[nH]c1=O)C(O)c1ccc(C(O)/C(=N/NC)c2nc3ccc([N+](=O)[O-])cc3[nH]c2=O)cc1 | CEM | RF | - | >78 µM
Fc1cccc(F)c1C1SCc2nc3ccccc3n21 | CEM + CEM-SS | UC040-R (RT-Y181C) | RT-Y181C | >69 µM
Cc1cn([C@H]2C[C@H](N=[N+]=[N-])[C@@H](CO)O2)c(=O)[nH]c1=O | MT-4 | IIIB | - | 0.0068 µg/mL
Cc1cn([C@H]2C[C@H](N=[N+]=[N-])[C@@H](CO)O2)c(=O)[nH]c1=O | PBMC | WOME (syncytium-inducing) | - | 0.02 µM
O=C(O)c1cc(O)cc(O)c1N=Nc1ccc(/C=C/c2ccc(N=Nc3c(O)cc(O)cc3C(=O)O)cc2S(=O)(=O)O)c(S(=O)(=O)O)c1 | CEMx174 + CEM | IIIB | - | 9 µg/mL
CO[C@H]1N([C@H]2C=C[C@@H](CO)O2)C(=O)NC(=O)[C@]1(C)I | CEM | RF | - | 0.376 µM
NC1N=S(=O)(c2ccccc2)c2ccccc2N1 | CEM + CEM-SS | IIIB | - | 119 µM
Nc1nc2c(ncn2[C@H]2CO[C@@H](CO)O2)c(=O)[nH]1 | MT-2 | IIIB | - | 1 µM
C[C@@]1(Br)C(=O)NC(=O)N([C@H]2C=C[C@@H](CO)O2)[C@H]1O | CEM | RF | - | >200 µM
Cn1cc(N)cc1C(=O)Nc1cc(C(=O)Nc2ccc3cc(S(=O)(=O)O)cc(S(=O)(=O)O)c3c2)n(C)c1 | CEM + CEM-SS | G762-3 | - | 5.4 µM
CCn1cc(C(=O)O)c(=O)c2cc(F)c(N3CCNCC3)nc21 | MT-4 | IIIB | - | >50 µg/mL
Cc1cn([C@H]2C[C@H](N=[N+]=[N-])[C@@H](CO)O2)c(=O)[nH]c1=O | CEM + CEM-SS | IIIB | - | 0.003 µM
C[C@]1(Br)C(=O)NC(=O)N([C@H]2C=C[C@@H](CO)O2)[C@@H]1O | CEM | RF | - | >200 µM
Cc1ccnc2c1NC(=O)c1cccnc1N2C1CC1 | CEM + CEM-SS | 4xAZT(RT-D67N K70R T215Y K219Q) | RT-D67N K70R T215Y K219Q | 0.02 µM
CC1COc2c(N3CCN(C)CC3)c(F)cc3c(=O)c(C(=O)O)cn1c23 | MT-4 | IIIB | - | >50 µg/mL
Nc1ncnc2c1ncn2CCOCP(=O)(O)O | MT-2 | LAI | - | 14.2 µM

Repeating the first 5 entries:

compound	cells	strain or isolate	mutations	result
Nc1nc(NC2CC2)c2ncn([C@H]3C=C[C@@H](CO)C3)c2n1	MT-2	Site-directed mutant	RT-K65R M184V	>3.44 µM
CO[C@@H]1N([C@H]2C=C[C@@H](CO)O2)C(=O)NC(=O)[C@@]1(C)Br	CEM	RF	-	54.6 µM
C/C=C/CSc1cc(NC(=S)c2ccsc2C)ccc1Cl	CEM + CEM-SS	NL4-3 (RT M184V)	RT-M184V	0.1 µM
C[C@H](Cn1cnc2c(N)ncnc21)OCP(=O)(O)O	MT-2	Site-directed mutant	RT-K65R	11.88 µM
Cc1ccnc2c1NC(=O)c1cccnc1N2C1CC1	CEM + CEM-SS	RF	-	0.2 µM